The source of these data is article PMC7918931 (Viruses, 2021).

Chains of the proteins cited; added tags and fusions are not shown. Residues count along the entry.
UniProt Q9HAU4, 297-330: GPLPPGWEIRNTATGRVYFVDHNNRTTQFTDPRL

This assay concerns the target T1, GST-SMURF2 WW domain #3 (UniProt Q9HAU4 297-330).
T1 construct: also called GST-SMURF2-WW3; SMURF2-3
In words: SPR. The settings on record: both partners purified.

Usually Kd stands for a measure of binding affinity in units of concentration. Higher therefore signals weaker binding. As for MRRVILPTAPPEYMEAIK [eVP40-WT peptide (MRRVILPTAPPEYMEAI-K-biotin)], binding was characterised by a dissociation constant (Kd) of 78 µM.
